Results of unrelated studies side by side (data: NIAID ChemDB).

All rows: tests in culture; organism: Respiratory syncytial virus

ECn: concentration that inhibits the pathogen or its effect by n%. Inhibition is in % at the dose shown (toxicity tests: loss of growth or viability). Blank or dashed fields: not listed here. Neighbouring rows are from separate reports.

| SMILES | strain or isolate | cells | read by | measure | tested at | value |
|---|---|---|---|---|---|---|
| COc1cc(OC)c(NC(=S)Nc2ccc(NC(=O)c3ccco3)cc2)cc1Cl |  | HFF |  | EC50 |  | >10 µg/mL |
| O=C(/C=C/c1ccc(O)c(O)c1)O[C@@H]1CC(O)(C(=O)O)C[C@@H](OC(=O)/C=C/c2ccc(O)c(O)c2)C1O | TYPE A2 | HEP-2 | cytopathic effect | EC50 |  | 0.163 µg/mL |
| Cc1cccc(NC(=S)Nc2ccc(NC(=O)c3ccco3)cc2)c1 |  | HFF |  | EC50 |  | >10 µg/mL |
| CCOC(=O)c1cc(C#N)c2[nH]c3ccccc3n2c1=O | FM-58-8 | HEP-2 | plaque count | EC50 |  | 28.3 µg/mL |
| O=C(NC1CC1)c1cc2c(s1)-c1ccccc1N(C(=O)c1ccc(NC(=O)c3ccccc3-c3ccccc3)cc1)CC2 | Clinical isolate SM61-48 (B) | HeLa | plaque count | EC50 |  | 0.29 µM |
| CCOC(=O)c1cc(C(=O)O)c(=O)n2c1[nH]c1ccccc12 | LONG | HEP-2 | plaque count | EC50 |  | >40 µg/mL |
| NC(=O)CCN(CCC(N)=O)S(=O)(=O)c1cccc(Nc2nc(Nc3cccc(S(=O)(=O)N(CCC(N)=O)CCC(N)=O)c3)nc(Nc3ccc(-c4ccc(Nc5nc(Nc6cccc(S(=O)(=O)N(CCC(N)=O)CCC(N)=O)c6)nc(Nc6cccc(S(=O)(=O)N(CCC(N)=O)CCC(N)=O)c6)n5)cc4S(=O)(=O)O)c(S(=O)(=O)O)c3)n2)c1 | 18537/TYPE B | HEP-2 | cytopathic effect | EC50 |  | 0.25 µg/mL |
| O=C(Nc1ccc(NC(=S)Nc2ccc(C(F)(F)F)c(Cl)c2)cc1)c1cscn1 |  | HFF |  | EC50 |  | >10 µg/mL |
| N#Cc1cc(NC(=O)c2ccccc2)c(=O)n2c1[nH]c1ccccc12 |  | HEP-2 | syncytia | EC50 |  | 0.9 µg/mL |
| CCCCCCCCCCCCCCCCCCCCCCO |  | VERO | syncytia | inhibition | 5 µg/mL | 78% |
| CCn1nc(Cc2n[nH]c(=S)o2)nc1C |  |  |  | MIC |  | >400 µg/mL |
| O=C(Nc1ccc(NC(=S)Nc2ccc(C(F)(F)F)c(Cl)c2)cc1)c1ccccn1 |  | HFF |  | EC50 |  | >10 µg/mL |
| Cc1nc(Cc2n[nH]c(=S)n2-c2ccccc2)nn1C |  |  |  | MIC |  | 80 µg/mL |
| CCOC(=O)c1cc2c(s1)-c1ccccc1N(C(=O)c1ccc(NC(=O)c3ccccc3-c3ccccc3)cc1)CC2 | LONG | HeLa | plaque count | EC50 |  | >25 µM |
| Cc1ccc(NC(=S)Nc2ccc(NC(=O)c3ccco3)cc2)cc1Cl |  | HFF |  | EC50 |  | >10 µg/mL |
| Cc1nc(CC(=O)NN)nn1C |  |  |  | MIC |  | >400 µg/mL |
| N#Cc1cc(C#N)c2[nH]c3ccccc3n2c1=O |  | HEP-2 | syncytia | EC50 |  | 7.9 µg/mL |
| O=C(Nc1ccc(NC(=S)Nc2cc(C(F)(F)F)cc(C(F)(F)F)c2)cc1)c1csnn1 |  | HFF |  | EC50 |  | >10 µg/mL |

A second listing of 2 rows from above:

SMILES,strain or isolate,cells,read by,measure,tested at,value
Cc1ccc(NC(=S)Nc2ccc(NC(=O)c3ccco3)cc2)cc1Cl,,HFF,,EC50,,>10 µg/mL
CCOC(=O)c1cc(C(=O)O)c(=O)n2c1[nH]c1ccccc12,LONG,HEP-2,plaque count,EC50,,>40 µg/mL